Compound potency records, mixed from different reports. Data source: NIAID ChemDB in PubChem.

Shared fields: target-level tests; agent: Hepatitis C virus; protein: NS3/NS4A protease; read-out: IC50

a–b is a range or a potency band. ICn is the concentration giving n% inhibition. Blank or dashed fields: not listed here. Rows are shuffled and stem from different studies.

| SMILES | strain or isolate | value |
|---|---|---|
| C=CC1C[C@@]1(NC(=O)[C@@H]1C[C@@H](Oc2cc(-c3ccccc3)nc3cc(OC)ccc23)CN1C(=O)[C@@H](NC(=O)[C@@H]1COc2ccccc2O1)C(C)(C)C)C(=O)NS(=O)(=O)C1(Cc2ccccc2)CC1 | BMS | 0.5–5 µM |
| C=C[C@@H]1C[C@]1(NC(=O)[C@@H]1C[C@@H](Oc2cc(-c3ccccc3)nc3cc(OC)ccc23)CN1C(=O)[C@@H](NC(=O)OC(C)(C)C)C(C)(C)C)C(=O)NS(=O)(=O)c1cccc2ccccc12 | BMS | <0.05 µM |
| C=CC1CC1(NC(=O)[C@@H]1C[C@@H](OC(=O)Nc2ccc(F)c(F)c2F)CN1C(=O)[C@@H](NC(=O)OC(C)(C)C)C(C)(C)C)C(=O)NS(=O)(=O)C1CC1 | BMS/H77C/J416S | 0.1–1 µM |
| C=CC1CC1(NC(=O)[C@@H]1C[C@@H](Oc2cc(-c3ccccc3)nc3cc(OC)ccc23)CN1C(=O)[C@@H](NC(=O)OC(C)(C)C)C(C)(C)C)C(=O)NS(=O)(=O)C1(C(=O)Cc2ccccc2)CC1 | BMS | <0.05 µM |
| COc1ccc2c(O[C@@H]3C[C@@H](C(=O)NC4(C(=O)NS(=O)(=O)C5CC5)CC4)N(C(=O)[C@@H](NC(=O)OC(C)(C)C)C(C)C)C3)cc(-c3ccccc3)nc2c1 | BMS | <0.05 µM |
| C=C[C@H]1C[C@@]1(NC(=O)[C@@H]1C[C@@H](Oc2cc(-c3ccccc3)nc3cc(OC)ccc23)CN1C(=O)[C@@H](NC(=O)NCC)C(C)(C)C)C(=O)NS(=O)(=O)C1(Cc2ccccc2)CC1 | BMS | <0.05 µM |
| C=CC1C[C@]1(NC(=O)[C@@H]1C[C@@H](Oc2cc(-c3csc(NC(C)=O)n3)nc3cc(OC)ccc23)CN1C(=O)[C@@H](NC(=O)OC(C)(C)C)C(C)(C)C)C(=C)C |  | 0.015 µM |
| C=CC1CC1(NC(=O)[C@@H]1C[C@@H](OC(=O)Nc2cccc(C(=O)OC)c2)CN1C(=O)[C@@H](NC(=O)OC(C)(C)C)C(C)(C)C)C(=O)NS(=O)(=O)C1CC1 | BMS/H77C/J416S | <0.1 µM |
| C=C[C@@H]1C[C@]1(NC(=O)[C@@H]1C[C@@H](Oc2cc(-c3ccccc3)nc3cc(OC)ccc23)CN1C(=O)[C@@H](NC(=O)OC(C)(C)C)C(C)(C)C)C(=O)NS(=O)(=O)CCC | BMS | <0.05 µM |
| C=CC1CC1(NC(=O)[C@@H]1C[C@@H](OC(=O)Nc2ccccc2Cl)CN1C(=O)[C@@H](NC(=O)OC(C)(C)C)C(C)(C)C)C(=O)NS(=O)(=O)C1CC1 | BMS/H77C/J416S | <0.1 µM |
| C=CC1C[C@@]1(NC(=O)[C@@H]1C[C@@H](Oc2cc(-c3ccccc3)nc3cc(OC)ccc23)CN1C(=O)[C@@H](NC(=O)Oc1ccccc1)C(C)(C)C)C(=O)NS(=O)(=O)C1(Cc2ccccc2)CC1 | BMS | 0.05–0.5 µM |
| C=CC1CC1(NC(=O)[C@@H]1C[C@@H](OC(=O)Nc2ccccc2CC)CN1C(=O)[C@@H](NC(=O)OC(C)(C)C)C(C)(C)C)C(=O)NS(=O)(=O)C1CC1 | BMS/H77C/J416S | 0.1–1 µM |
| C=C[C@@H]1C[C@]1(NC(=O)[C@@H]1C[C@@H](Oc2cc(-c3ccccc3)nc3cc(OC)ccc23)CN1C(=O)[C@@H](NC(=O)OCC(C)(C)C)C(C)(C)C)C(=O)NS(=O)(=O)C1CC1 | BMS | <0.05 µM |
| C=CC1CC1(NC(=O)[C@@H]1C[C@@H](OC(=O)Nc2ccccc2OCC)CN1C(=O)[C@@H](NC(=O)OC(C)(C)C)C(C)(C)C)C(=O)NS(=O)(=O)C1CC1 | BMS/H77C/J416S | <0.1 µM |
| C=CC1C[C@@]1(NC(=O)[C@@H]1C[C@@H](Oc2cc(-c3nc(C(C)C)cs3)nc3cc(OC)ccc23)CN1C(=O)[C@@H](NC(=O)OC(C)(C)C)C(C)(C)C)C(=O)NS(=O)(=O)C1(CCC)CC1 | BMS | <0.05 µM |
| C=CC1CC1(NC(=O)[C@@H]1C[C@@H](OC(=O)Nc2ccccc2C(C)=O)CN1C(=O)[C@@H](NC(=O)OC(C)(C)C)C(C)(C)C)C(=O)NS(=O)(=O)C1CC1 | BMS/H77C/J416S | <0.1 µM |
| C=C[C@H]1C[C@@]1(NC(=O)[C@@H]1C[C@@H](Oc2cc(-c3ccccc3)nc3cc(OC)ccc23)CN1C(=O)[C@@H](NC(=O)OCC1CCOCC1)C(C)(C)C)C(=O)NS(=O)(=O)C1(Cc2ccccc2)CC1 | BMS | <0.05 µM |
| COc1cc(O[C@@H]2C[C@@H](C(=O)NC3(C(=O)NS(=O)(=O)C4CC4)CC34CC4)N(C(=O)[C@@H](NC(=O)OC(C)(C)C)C(C)(C)C)C2)c2ccc(-c3ccccc3)cc2n1 | BMS | <0.05 µM |
| C=CC1CC1(NC(=O)[C@@H]1C[C@@H](OC(=O)Nc2ccccc2OC)CN1C(=O)[C@@H](NC(=O)OC(C)(C)C)C(C)(C)C)C(=O)NS(=O)(=O)C1CC1 | BMS/H77C/J416S | <0.1 µM |
| COc1ccc2c(O[C@@H]3C[C@@H](C(=O)NC4(C(=O)NS(=O)(=O)C5CC5)CCC4)N(C(=O)[C@@H](NC(=O)OC(C)(C)C)C(C)(C)C)C3)cc(-c3ccccc3)nc2c1 | BMS | <0.05 µM |
| C=CCCCCCCCCC1(S(=O)(=O)NC(=O)[C@]2(NC(=O)[C@@H]3C[C@@H](Oc4cc(-c5ccccc5)nc5cc(OC)ccc45)CN3C(=O)[C@@H](NC(=O)OC(C)(C)C)C(C)(C)C)C[C@@H]2C=C)CC1 | BMS | <0.05 µM |